Results deposited as PubChem BioAssay AID624099 (ICCB-Longwood, 2012).
Screen: 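Host factors E2 relies on to silence an HPV18 LCR reporter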 (primary screen). Cells: human C33A cervical carcinoma cells (HPV-negative) stably expressing BPV1 E2 and an HPV18 LCR luciferase reporter. Knock-down reagent: siRNA pool against human genes, 40 nM. Timing: 72 h. Measured: 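Per-well luciferase luminescence, z-scored on each plate against the plate mean and SD with control wells left out, then averaged across three replicate plates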. Scale: mean z-score and z-score: higher = stronger reporter signal, weaker E2 silencing. Rule for the call: 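Hit if mean z-score reaches 2 and two or more of three replicate z-scores also reach 2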.
The whole screen tested about 21,000 reagents; this is an unselected part. In the full data, 497 (2.4%) are marked active. 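Higher z means weaker E2 silencing; only reporter increases were scored, and knock-downs that hurt cell survival may mask genuine repressor factors.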 Reagents against one gene are numbered here.

Which result is listed for CDC37 (cell division cycle 37, HSP90 cochaperone)?
mean z-score: 0.95; z-score, replicate A: 0.82; z-score, replicate B: 0.82; z-score, replicate C: 1.22; outcome: inactive

What is on record for NUP54 (nucleoporin 54)?
mean z-score: 1.74; z-score, replicate A: 1.83; z-score, replicate B: 1.78; z-score, replicate C: 1.62; outcome: inactive

With C17orf58 (chromosome 17 open reading frame 58), how do the results read?
mean z-score: 0.48; z-score, replicate A: 1.57; z-score, replicate B: -0.06; z-score, replicate C: -0.07; outcome: inactive

For SNX30 (sorting nexin family member 30), what was measured?
mean z-score: 1.25; z-score, replicate A: 0.79; z-score, replicate B: 1.57; z-score, replicate C: 1.38; outcome: inactive

With ALDH7A1 (aldehyde dehydrogenase 7 family member A1), how do the results read?
mean z-score: 0.78; z-score, replicate A: 1.31; z-score, replicate B: 0.43; z-score, replicate C: 0.6; outcome: inactive

With HIPK2 (homeodomain interacting protein kinase 2), what does the deposit list?
mean z-score: 0.77; z-score, replicate A: 0.99; z-score, replicate B: 0.65; z-score, replicate C: 0.67; outcome: inactive

For STK17B (serine/threonine kinase 17b), what was measured?
mean z-score: 0.1; z-score, replicate A: 0.33; z-score, replicate B: 0.16; z-score, replicate C: -0.18; outcome: inactive

2 consecutive reagents from above, for reference:
NUP54 (nucleoporin 54): mean z-score = 1.74; z-score, replicate A = 1.83; z-score, replicate B = 1.78; z-score, replicate C = 1.62; outcome = inactive
C17orf58 (chromosome 17 open reading frame 58): mean z-score = 0.48; z-score, replicate A = 1.57; z-score, replicate B = -0.06; z-score, replicate C = -0.07; outcome = inactive

The results go on.
With RASSF4 (Ras association domain family member 4), how do the results read?
mean z-score: -0.05; z-score, replicate A: 0.05; z-score, replicate B: -0.14; z-score, replicate C: -0.06; outcome: inactive

For LOC389319 (retired record), how do the results read?
mean z-score: -0.05; z-score, replicate A: -0.17; z-score, replicate B: 0.04; z-score, replicate C: -0.01; outcome: inactive

For PRKAG3 (protein kinase AMP-activated non-catalytic subunit gamma 3), how do the results read?
mean z-score: 1.34; z-score, replicate A: 0.79; z-score, replicate B: 1.76; z-score, replicate C: 1.46; outcome: inactive

What did the screen give for HDAC10 (histone deacetylase 10)?
mean z-score: -0.16; z-score, replicate A: -0.23; z-score, replicate B: -0.13; z-score, replicate C: -0.12; outcome: inactive

With CCDC162P (coiled-coil domain containing 162, pseudogene) #1, what was measured?
mean z-score: 1.32; z-score, replicate A: 1.45; z-score, replicate B: 1.15; z-score, replicate C: 1.35; outcome: inactive

For CCDC162P (coiled-coil domain containing 162, pseudogene) #2, what does the deposit list?
mean z-score: 2.51; z-score, replicate A: 2.32; z-score, replicate B: 2.25; z-score, replicate C: 2.95; outcome: active

What is on record for CCDC162P (coiled-coil domain containing 162, pseudogene) #3?
mean z-score: -0.57; z-score, replicate A: -0.6; z-score, replicate B: 0.04; z-score, replicate C: -1.14; outcome: inactive

Which result is listed for CCDC162P (coiled-coil domain containing 162, pseudogene) #4?
mean z-score: -0.55; z-score, replicate A: -1.03; z-score, replicate B: -0.17; z-score, replicate C: -0.44; outcome: inactive

What is on record for LINC02595 (long intergenic non-protein coding RNA 2595)?
mean z-score: 0.12; z-score, replicate A: 0.03; z-score, replicate B: 0.34; z-score, replicate C: -0.02; outcome: inactive

With CHGB (chromogranin B), how do the results read?
mean z-score: -0.27; z-score, replicate A: -0.37; z-score, replicate B: -0.26; z-score, replicate C: -0.18; outcome: inactive

With NGFR (nerve growth factor receptor), how do the results read?
mean z-score: 0.16; z-score, replicate A: 0.03; z-score, replicate B: 0.33; z-score, replicate C: 0.11; outcome: inactive

With NPC1L1 (NPC1 like intracellular cholesterol transporter 1), how do the results read?
mean z-score: -2.49; z-score, replicate A: -1.74; z-score, replicate B: -2.81; z-score, replicate C: -2.93; outcome: inactive

With CHRDL2 (chordin like 2), what does the deposit list?
mean z-score: 0.66; z-score, replicate A: 0.66; z-score, replicate B: 0.7; z-score, replicate C: 0.63; outcome: inactive

For ZMYND15 (zinc finger MYND-type containing 15), how do the results read?
mean z-score: 0.11; z-score, replicate A: 0; z-score, replicate B: 0.19; z-score, replicate C: 0.14; outcome: inactive
